Tested on: SEB or CMV stimulated human PBMCs
Conditions: PBMCs from healthy human donors activated with SEB or CMV; sCD28 by ELISA; FIG. 2A-B

## ARP-100
  CD28 cleavage and sCD28 production: capable of suppressing CD28 cleavage and sCD28 production
